Earlier results in paper PMC5557986 (Scientific Reports, 2017).

Test system: NA with His275Tyr substitution
Details: cited from earlier work

Row | Compound | resistance conferred by His275Tyr substitution
1 | CCOC(=O)C1=C[C@@H](OC(CC)CC)[C@H](NC(C)=O)[C@@H](N)C1 [oseltamivir] | high level of resistance
2 | peramivir | moderate resistance
